Data on one substance can be found in PMC3597823.

Common to all, as to test: SPR
(SPR reads the build-up and loss of mass on a sensor chip optically.)

Test [1] deals with N1 peptide P1 ([change]–94), Myc-tagged (murine).
Test [2] addresses N1 peptide P2 ([change]–94), Myc-tagged (murine).
In test [3] the target is N1 peptide P3 ([change]–94), Myc-tagged (murine).

pKd: −log10 of the molar value.

In test [1], “synthetic Aβ_(1–42) oligomers (Aβ-derived diffusible ligands) (from UniProt P05067) (peptide)” had a pKd of 7.89 and a koff of 0.000111 s⁻¹. In test [2], this substance had a pKd of 7.58 and a kon of 5210 M⁻¹ s⁻¹. This substance also returned a decrease of binding against N1 in test [3] of 92%.

Broadly, the pKd is −log10 of the Kd, conventionally taken in molar units. A low value points to a large Kd. By koff is commonly meant a measure of how fast the partners let go of each other. A low value points to slow dissociation. In general, kon refers to the second-order rate constant of association. Read a high kon as fast association.
